From US11331369B2, “Endoparasitic depsipeptides” (Zoetis Services LLC, priority 2017, dated 2022)

Tested on: 4th stage larvae (L4) of Dirofilaria immitis
Assay: Dirofilaria immitis, L4 Stage (DiL4) In Vitro Assay
Assay type: cell-based
Details: ratio of DiMF MED to DiL4 MED

CC(C)C[C@H]1C(=O)O[C@H](Cc2ccc(N3CCOCC3)cc2)C(=O)N(C)[C@@H](CC(C)C)C(=O)O[C@H](C)C(=O)N(C)[C@@H](CC(C)C)C(=O)O[C@H](Cc2ccc(N3CCOCC3)cc2)C(=O)N(C)[C@@H](CC(C)C)C(=O)O[C@H](C)C(=O)N1C [emodepside, reference compound]
selectivity ratio (DiMF/DiL4): 1
